A mixed list of measured activities; the numbers were collected in NIAID ChemDB.

Shared fields: whole-cell or culture tests; agent: Mycobacterium tuberculosis

Percent inhibition refers to the dose given; in toxicity tests it is the harm to the cells. An empty or dashed field is not shown. MIC bound: limit read from a one-dose screen. Rows are shuffled and stem from different studies. ECn is the concentration giving n% inhibition of infection, replication or growth.

SMILES | strain or isolate | read by | read-out | tested at | value
COc1ccc2cccnc2c1-n1c(C)ccc1C | H37Rv | - | MIC | - | >100 µg/mL
COc1ccc([C@H]2OC(=O)C3C2C(=O)O[C@@H]3c2ccc(OC)cc2)cc1 | H37Rv | BACTEC | MIC bound | - | >12.5 µg/mL
CO[C@H]1/C=C/O[C@@]2(C)Oc3c(C)c(O)c4c(=O)c(c5oc6cc(N7CCN(C(C)C)CC7)cc(=O)c6nc5c4c3=C2O)NC(=O)/C(C)=C\C=C\[C@H](C)[C@H](O)[C@@H](C)[C@@H](O)[C@@H](C)[C@H](OC(C)=O)[C@@H]1C | 2275 (rifampin-resistant) | - | MBC | - | 0.8 µg/mL
COc1ccc(OC)c(CCNCCNCCC2=CCCCC2)c1 | - | - | MIC | - | 12.5 µM
COc1cc2cc[n+](C)c(Cc3ccc(Oc4cc(Cc5c6cc(OC)c(OC)cc6cc[n+]5C)ccc4OC)cc3)c2cc1OC.[Cl-].[Cl-] | H37Rv | BACTEC | MIC | - | ≥12.5 µg/mL
COc1ccc(CNCCNCc2ccc(OC(F)(F)F)cc2)c(OC)c1 | - | - | MIC | - | 50 µM
COc1ccc(Br)cc1Br | H37Rv | - | MIC | - | >100 µg/mL
CC(=O)Oc1ccc([C@@H]2CC(=O)c3c(cc(OC(C)=O)c(-c4c(OC(C)=O)cc(OC(C)=O)c5c4O[C@H](c4ccc(OC(C)=O)cc4)CC5=O)c3OC(C)=O)O2)cc1 | - | - | EC50 | - | >12.5 µg/mL
CCCCC(CC)CN1CN(CC(CC)CCCC)CC(C)(NCCNCCCCO)C1 | - | - | MIC | - | 12.5 µM
Cc1ccc(Nc2cc(Br)c(N)c3c2C(=O)c2c(N)c(Br)cc(Nc4ccc(C)cc4)c2C3=O)cc1 | H37Rv | - | MIC | - | >100 µg/mL
COc1ccc(C2Oc3cc(OC)cc(OC)c3C(=O)C2Br)cc1 | H37Rv | - | EC50 | - | >12.5 µg/mL
CO[C@H]1/C=C/O[C@@]2(C)Oc3c(C)c(O)c4c(O)c(c(/C=N/N5CCN(C/C=C/c6ccccc6)CC5)c(O)c4c3C2=O)NC(=O)/C(C)=C\C=C\[C@H](C)[C@H](O)[C@@H](C)[C@@H](O)[C@@H](C)[C@H](OC(C)=O)[C@@H]1C | 27 (rifampin-resistant) | - | MBC | - | 0.2 µg/mL
CC1(C)[C@H]2CC[C@@H](CNCCNC3CCCCCCC3)[C@@H]1C2 | - | - | MIC | - | 12.5 µM
CCCCC(N=C(N)N)C(=O)O | H37Rv | - | MIC | - | >100 µg/mL
c1ccc(C(CCNCCNC2CCCCCCC2)c2ccccc2)cc1 | - | - | MIC | - | 6.25 µM
Oc1ccc(O)c(Cl)c1Cl | H37Rv | - | MIC | - | 100 µg/mL
CC(C)(C)CC(C)(C)NCCNCC12CC3CC(CC(C3)C1)C2 | - | - | MIC | - | 4.7 µM
COC(=O)[C@@H]1Cc2c([nH]c3ccccc23)C(C)(C)N1 | H37Rv | resazurin | inhibition | 6.25 µg/mL | 14%
CC(CNCCNCCc1ccc(F)cc1)c1ccccc1 | - | - | MIC | - | 50 µM
O=C(/C=C/c1ccccc1O)c1ccccc1 | H37Rv | - | MIC | - | 25 µg/mL
CC(C)=CCC/C(C)=C/CNCCN[C@@H]1C[C@@H]2C[C@H]([C@H]1C)C2(C)C | - | - | MIC | - | 25 µM
O=c1[nH]ccc2c([N+](=O)[O-])cccc12 | H37Rv | - | MIC | - | >100 µg/mL
C=C1C(=O)[C@]23C[C@H]1CC[C@H]2[C@@]12CO[C@H](O)[C@@H]1C(C)(C)[C@@H](O)C[C@@H]2OC3=O | H37Rv | BACTEC | inhibition | 12.5 µg/mL | -1%
Cn1cc2ccc([N+](=O)[O-])cc2n1 | H37Rv | - | MIC | - | 100 µg/mL
C=CCN(CCNCCc1ccccc1OC)C1CCCC1 | - | - | MIC | - | 25 µM
c1ccc(-c2ccc(-c3cc(-c4ccccc4)on3)cc2)cc1 | H37Rv | - | MIC | - | >100 µg/mL
C/C(=N\NC(=O)CCSCCC(=O)N/N=C(\C)c1ccccc1O)c1ccccc1O | H37Rv | BACTEC | inhibition | 12.5 µg/mL | 0%
CCN(CC)CCSCCCNc1c2ccc(Cl)cc2nc2ccc(OC)cc12 | H37Rv | - | MIC | - | 50 µg/mL
COC(=O)C[C@H]1[C@@H](OC(C)=O)[C@H](n2cc(C)c(=O)[nH]c2=O)O[C@@H]1COC(C)=O | H37Rv | resazurin | inhibition | 6.25 µg/mL | -16%
COc1ccc(C2Oc3ccc(C(=O)O)cc3C(=O)C2O)cc1 | - | - | inhibition | 12.5 µg/mL | 0%
CCCCCCCCCCCNCCNCC1(O)CCCCC1 | - | - | MIC | - | 50 µM
COc1ccc(/C=C/C(=O)c2ccccn2)cc1 | H37Rv | - | inhibition | 12.5 µg/mL | 0%
O=C(O)c1c(-c2ccccc2O)cnc2ccc3c(S(=O)(=O)[O-])cccc3c12.[Na+] | H37Rv | - | MIC | - | >100 µg/mL
NC1CC(c2ccccc2)OC1=O | H37Rv | BACTEC | MIC bound | - | >12.5 µg/mL
CCCCC(CC)CN1CN(CC(CC)CCCC)CC(C)(NCCN[C@@H]2C[C@@H]3C[C@H]([C@H]2C)C3(C)C)C1 | - | - | MIC | - | 50 µM
CC(C)(O)CN1CCN(CC(C)(C)S)CC1 | H37Rv | - | MIC | - | >100 µg/mL
Oc1ccc(CCNCCNCc2ccccc2)cc1 | - | - | MIC | - | 50 µM
CC(=O)N1c2ccccc2S(=O)(=O)c2c1ccc1ccccc21 | H37Rv | BACTEC | MIC bound | - | >12.5 µg/mL
Nc1ncccc1/C=C/C(=O)c1ccc2c(ccc3ccccc32)c1 | H37Rv | - | EC50 | - | <12.5 µg/mL
CC(C)S(=O)(=O)n1c(N)nc2ccc(/C(=N/O)c3ccccc3)cc21 | H37Rv | BACTEC | MIC bound | - | >12.5 µg/mL
COc1ccc2c(c1)OC(c1ccccc1)CC2=O | H37Rv | - | EC50 | - | >12.5 µg/mL
CN1[C@@H](CC(=O)c2ccccc2)CCC[C@H]1C[C@H](O)c1ccccc1 | H37Rv | BACTEC | inhibition | 128 µg/mL | 49%
CC(C)c1ccc2c(c1)CC[C@H]1[C@](C)(CNCCN[C@@H](C)C3CCCCC3)CCC[C@]21C | - | - | MIC | - | 25 µM
CCCN1CN(C(C(=O)NC2C(=O)N3C(C(=O)O)=C(C)CSC23)c2ccc(O)cc2)CSC1=S | H37Rv | BACTEC | MIC bound | - | >12.5 µg/mL
O=C(O)c1cc(I)c(O)c(I)c1 | H37Rv | - | MIC | - | 100 µg/mL
Nc1cc(S(N)(=O)=O)ccc1SSc1ccc(S(N)(=O)=O)cc1N | H37Rv | BACTEC | inhibition | 12.5 µg/mL | 0%
O=C(Oc1cccc(OC(=O)c2ccccc2)c1)c1ccccc1 | H37Rv | - | MIC | - | >100 µg/mL
S=C1C(=Nc2ccccc2)N(c2ccccc2)/C(=N/c2ccccn2)N1c1ccccc1 | H37Rv | BACTEC | MIC bound | - | >12.5 µg/mL
O=[N+]([O-])c1cc([As](=O)([O-])O)ccc1OCCO.[Na+] | H37Rv | - | MIC | - | 100 µg/mL
CC1(C)CCC[C@]2(C)[C@H]3C=C4C=C(O)C(=O)C=C4O[C@@]3(C)CC[C@@H]12 | CS-R | - | MIC | - | 12.5 µg/mL
Cc1ccc2ccc(N)cc2n1 | H37Rv | - | MIC | - | 25 µg/mL
CN(C)c1cccc(F)c1C(=O)NC(=O)Nc1ccc(Cl)cc1 | H37Rv | BACTEC | inhibition | 12.5 µg/mL | 26%
Clc1ccc(CCNCCNCCc2ccccc2Cl)c(Cl)c1 | - | - | MIC | - | 50 µM
CCOC(=O)C1=C(Nc2ccc(Cl)cc2)C(=O)N(C(C)(C)C)C1 | H37Rv | BACTEC | inhibition | 12.8 µg/mL | 8%
CCCCCCCCCCCNCCNCc1cccc(OC)c1OC | - | - | MIC | - | 25 µM
CC1(C)COC(c2cc(Br)ccc2Br)=N1 | H37Rv | BACTEC | inhibition | 12.5 µg/mL | -9%
O=C(O)c1ccncc1O | H37Rv | - | MIC | - | >100 µg/mL
O=C(O)/C=C/c1c2ccc(=O)c(O)c-2oc2c(O)c(O)ccc12 | H37Rv | BACTEC | MIC bound | - | >12.5 µg/mL
Cc1ccc(N)cc1O | H37Rv | - | MIC | - | 25 µg/mL
COc1cc2c3c(c1OC)Oc1ccc(cc1)CC1c4c(cc(OC)c(OC)c4Oc4ccc(cc4)CC3N(C)CC2)CCN1C | H37Rv | BACTEC | MIC | - | ≥12.5 µg/mL
NC(=O)NC(Cc1c[nH]c2ccccc12)C(=O)O | H37Rv | - | MIC | - | >100 µg/mL
CCOC(=O)c1sc(N)nc1C(F)(F)F | H37Rv | BACTEC | MIC bound | - | >6.25 µg/mL
NC(=O)NC(=O)c1nc2ccccc2[nH]c1=O | H37Rv | - | MIC | - | 50 µg/mL

A second listing of 5 rows from above:

{"SMILES": "CC(C)(O)CN1CCN(CC(C)(C)S)CC1", "strain or isolate": "H37Rv", "read-out": "MIC", "value": ">100 µg/mL"}
{"SMILES": "CCOC(=O)C1=C(Nc2ccc(Cl)cc2)C(=O)N(C(C)(C)C)C1", "strain or isolate": "H37Rv", "read by": "BACTEC", "read-out": "inhibition", "tested at": "12.8 µg/mL", "value": "8%"}
{"SMILES": "CCCCC(N=C(N)N)C(=O)O", "strain or isolate": "H37Rv", "read-out": "MIC", "value": ">100 µg/mL"}
{"SMILES": "CCCCC(CC)CN1CN(CC(CC)CCCC)CC(C)(NCCN[C@@H]2C[C@@H]3C[C@H]([C@H]2C)C3(C)C)C1", "read-out": "MIC", "value": "50 µM"}
{"SMILES": "Cc1ccc2ccc(N)cc2n1", "strain or isolate": "H37Rv", "read-out": "MIC", "value": "25 µg/mL"}